Common to all, as to assay: SEC
A general note: In gel filtration, larger molecules generally elute earlier.

Experiment [1] addresses His.EK.LotP ('Candidatus Liberibacter asiaticus').
Experiment [2] addresses His.EK.LotP.FLAG ('Candidatus Liberibacter asiaticus').
Experiment [3] addresses His.EK.LotP^R104A ('Candidatus Liberibacter asiaticus').

In general, stoichiometry N refers to a count of units in the complex or per binding partner. Regarding His.EK.LotP (natural protein), in experiment [1], the stoichiometry N was 2. In experiment [2], His.EK.LotP.FLAG (natural protein) gave a stoichiometry N of 2.

As to His.EK.LotP^R104A (natural protein), the stoichiometry N in experiment [3] came to 6.
